A mixed list of measured activities; the numbers were collected in NIAID ChemDB.

Common to all: enzyme or target tests; species: HIV-1; target: Reverse transcriptase; read by: nucleotide incorporation; read-out: IC50

Blank or dashed fields: not listed here.

SMILES,mutations,value
O=C(c1cc2ccccc2[nH]1)N1CCN(c2ncccc2N2CCCC2)CC1,,<100 µM
CS(=O)(=O)Nc1ccc2[nH]c(C(N)=O)c(S(=O)(=O)c3ccccc3)c2c1,,0.003–0.035 µM
O=C(c1cc2ccccc2[nH]1)N1CCN(c2ncccc2NCC(F)(F)F)CC1,,>100 µM
O=C(OC1OC2COC(=O)c3cc(O)c(O)c(O)c3-c3c(cc(O)c(O)c3O)C(=O)OC2C(OC(=O)c2cc(O)c(O)c(O)c2)C1OC(=O)c1cc(O)c(O)c(O)c1)c1cc(O)c(O)c(O)c1,,>20 µg/mL
CCNc1cccnc1N1CCN(C(=O)c2cc3cc(F)ccc3[nH]2)CC1,,<100 µM
COCCNC(=O)c1[nH]c2ccc(Cl)cc2c1Sc1ccccc1,,0.003–0.035 µM
CCOCn1c(Sc2ccccc2)c(CC)c(=O)[nH]c1=O,,0.214 µM
CC(C)Nc1cccnc1N(C)CCOC(=O)c1cc2ccccc2[nH]1,,<100 µM
S=C(NCc1ccco1)c1[nH]c2ccc(Cl)cc2c1Sc1ccccc1,,0.003–0.035 µM
O=C1OCC2OC(=O)c3cc(O)c(O)c(O)c3-c3c(O)c(O)c(O)c4c3C(=O)OC(C2OC(=O)c2cc(O)c(O)c(O)c2-c2c1cc(O)c(O)c2O)C1OC(=O)C2C4=C(O)C(=O)C23Oc2cc(O)c4c(c2C13)O[C@H](c1ccc(O)c(O)c1)C(O)C4,,>20 µg/mL
NC(=O)c1[nH]c2ccc(Cl)cc2c1S(=O)(=O)c1ccccc1,,0.003–0.035 µM
O=C1OCC2OC(O)C(O)C(O)C2OC(=O)c2cc(O)c(O)c(O)c2-c2c(O)c(O)c3oc(=O)c4c(c(O)c(O)c5oc(=O)c2c3c54)-c2c1cc(O)c(O)c2O,,<20 µg/mL
CC(C)Nc1cccnc1N(C)[C@H]1CCCC[C@@H]1N(C)C(=O)c1cc2ccccc2[nH]1,,>100 µM
CC(C)Nc1cccnc1N1CCN(C(=O)c2cc3c(ccc4ccccc43)[nH]2)CC1,,<100 µM
O=C(O[C@@H]1O[C@@H]2COC(=O)c3cc(O)c(O)c(O)c3-c3c(cc(O)c(O)c3O)C(=O)O[C@H]([C@H]1OC(=O)c1cc(O)c(O)c(O)c1)[C@@H]2OC(=O)c1cc(O)c(O)c(O)c1)c1cc(O)c(O)c(O)c1,,>20 µg/mL
Nc1cc(CNC(=O)c2[nH]c3ccc(Cl)cc3c2S(=O)(=O)c2ccccc2)ccn1,,0.003–0.035 µM
CC(C)Nc1cccnc1N(C)CC(C)(C)CN(C)C(=O)c1cc2ccccc2[nH]1,,>100 µM
CCc1cc(CCc2nc3ccccc3o2)c(=O)[nH]c1C,RT-Y181F,0.0234 µM
CC(C)Nc1cccnc1N1CCN(C(=O)c2cc3cc(O)ccc3[nH]2)CC1,,<100 µM
O=C(O[C@@H]1O[C@@H]2COC(=O)c3cc(O)c(O)c(O)c3-c3c(cc(O)c(O)c3O)C(=O)O[C@H]2[C@@H]2OC(=O)c3cc(O)c(O)c(O)c3-c3c(cc(O)c(O)c3O)C(=O)O[C@@H]12)c1cc(O)c(O)c(Oc2c(O)c(O)c(O)c3c2C(=O)O[C@H]2[C@@H]4OC(=O)c5cc(O)c(O)c(O)c5-c5c(cc(O)c(O)c5O)C(=O)O[C@H]4[C@@H](OC(=O)c4cc(O)c(O)c(O)c4)O[C@@H]2COC(=O)c2cc(O)c(O)c(O)c2-3)c1,,>20 µg/mL
Cc1c(C(=O)N2CCN(c3ncccc3NC(C)C)CC2)[nH]c2ccccc12,,<100 µM
O=C1OCC2OC(O)C3OC(=O)c4cc(O)c(O)c(O)c4-c4c(cc(O)c(O)c4O)C(=O)OC3C2OC(=O)c2cc(O)c(O)c(O)c2-c2c1cc(O)c(O)c2O,,>20 µg/mL
CC(C)Nc1cccnc1N1CCN(C(=O)c2cc3cc(OCC(=O)OCc4ccccc4)ccc3[nH]2)CC1,,<100 µM
O=C(O)C1=C[C@@H](OC(=O)c2cc(O)c(O)c(O)c2)[C@@H](OC(=O)c2cc(O)c(O)c(O)c2)[C@H](OC(=O)c2cc(O)c(O)c(O)c2)C1,,>20 µg/mL
CC(C)Nc1cccnc1N(C)CCN(C)C(=O)c1cc2ccccc2[nH]1,,<100 µM

Repeating the first 2 entries:

SMILES,mutations,value
O=C(c1cc2ccccc2[nH]1)N1CCN(c2ncccc2N2CCCC2)CC1,,<100 µM
CS(=O)(=O)Nc1ccc2[nH]c(C(N)=O)c(S(=O)(=O)c3ccccc3)c2c1,,0.003–0.035 µM

Two numbers with a dash give a range or band. ICn is the concentration giving n% inhibition. Neighbouring rows are from separate reports.